According to patent US12139742B2, “Devices, systems, and methods for preparing a standardized inoculum for antimicrobial susceptibility testing” (Avails Medical, Inc., priority 2020, dated 2024):

Assays:
[1] = test system: 23 different positive blood culture (PBC) samples comprising seven different species of bacteria; experiment: Kirby-Bauer disk diffusion AST of 0.5 McFarland inocula (present method vs traditional subculture); type: cell-based; conditions: categorical agreement
Description: The standardized inoculum 1726 (e.g., the 0.5 McFarland inoculum) can then be used directly for antimicrobial susceptibility testing using manual disk diffusion or diluted further for automated AST platforms. For example, the standardized inoculum 1726 prepared using the method 1700 and system 1702 disclosed herein can be subjected to manual Kirby-Bauer disk diffusion AST or an automated AST platform such as the VITEK®2 platform.
(§1) Both the present method 1700 and traditional microbial subculturing techniques were used to prepare standardized 0.5 McFarland inocula for AST using Kirby-Bauer disk diffusion (see Table 1) and the automated VITEK2 GN81 AST platform (see Table 2).
(§2) Two sets of standardized 0.5 McFarland inocula were prepared from 23 different positive blood culture (PBC) samples comprising seven different species of bacteria. The 23 PBC samples included six samples of Escherichia coli (ECo), two samples of Enterobacter cloacae (ECl), three samples of Klebsiella pneumoniae (KPn), four samples of Klebsiella oxytoca (KOx), two samples of Citrobacter freundii (CFr), four samples of Serratia marcescens (SMa), and two samples of Klebsiella aerogenes (KAe).
(§3) The first set was prepared using the presently disclosed method 1700 (sample preparation time: between 60 minutes and 180 minutes) and the second set was prepared using traditional microbial subculturing techniques (sample preparation time: between 18 hours to 24 hours). The testing was conducted using the automated VITEK®2 GN81 AST platform (see Table 1) and manual Kirby-Bauer disk diffusion (see Table 2).
In total, 296 minimum inhibitory concentrations (MICs) from the VITEK®2 GN81 platform and 224 zone sizes on disk diffusion were evaluated.

[2] = test system: 23 different positive blood culture (PBC) samples comprising seven different species of bacteria; experiment: VITEK 2 GN81 automated AST of 0.5 McFarland inocula (present method vs traditional subculture); type: cell-based; conditions: for % CA: categorical agreement; for % EA: essential agreement
Protocol: as §1, §2, §3

[3] = listed as piperacillin-tazobactam

Compound | % CA [1] | % CA [2] | % EA [2] | % CA [2, 3] | % EA [2, 3] | % CA ([1]; listed as ertapenem)
NC[C@H]1O[C@H](O[C@H]2[C@H](O)[C@@H](O[C@H]3O[C@H](CO)[C@@H](O)[C@H](N)[C@H]3O)[C@H](N)C[C@@H]2N)[C@H](N)C[C@@H]1O [Tobramycin] | 91.3% | 95.7% | 100% |  |  | 
CO[C@@]1(NC(=O)Cc2cccs2)C(=O)N2C(C(=O)O)=C(COC(N)=O)CS[C@@H]21 [Cefoxitin] | 100% | 100% | 100% |  |  | 
NCC[C@H](O)C(=O)N[C@@H]1C[C@H](N)[C@@H](O[C@H]2O[C@H](CN)[C@@H](O)[C@H](O)[C@H]2O)[C@H](O)[C@H]1O[C@H]1O[C@H](CO)[C@@H](O)[C@H](N)[C@H]1O [Amikacin] |  | 100% | 95.7% |  |  | 
Piperacillin-tazobactam | 100% | 88.9% | 88.9% | 88.9% | 88.9% | 
Gentamicin |  | 87% | 100% |  |  | 
C[C@@H](O)[C@H]1C(=O)N2C(C(=O)O)=C(S[C@@H]3CN[C@H](C(=O)Nc4cccc(C(=O)O)c4)C3)[C@H](C)[C@H]12 [Ertapenem] | 82.6% |  |  |  |  | 82.6%
C[C@@H](O)[C@H]1C(=O)N2C(C(=O)O)=C(S[C@@H]3CN[C@H](C(=O)N(C)C)C3)[C@H](C)[C@H]12 [Meropenem] | 91.3% | 100% | 95.2% |  |  | 
CC(C)(O/N=C(\C(=O)N[C@@H]1C(=O)N2C(C(=O)[O-])=C(C[n+]3ccccc3)CS[C@H]12)c1csc(N)n1)C(=O)O [Ceftazidime] |  | 100% | 95.7% |  |  | 
